Record: PubChem BioAssay AID624099 (ICCB-Longwood, 2012)
In all, the deposit lists about 21,000 reagents; this is a part drawn at random. Of all reagents, 497 (2.4%) were called active. 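Higher z means weaker E2 silencing; only reporter increases were scored, and knock-downs that hurt cell survival may mask genuine repressor factors.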 Reagents against one gene are numbered here.

Test: 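Knock-downs relieving repression by E2 of an HPV18 LCR luciferase reporter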 (primary screen)
Cell system: human C33A cervical carcinoma cells (HPV-negative) stably expressing BPV1 E2 and an HPV18 LCR luciferase reporter
Knock-down reagent: siRNA pool against human genes, 40 nM
Duration: 72 h
Detection: 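HPV18 LCR reporter light per well, converted to plate-wise z-scores that exclude control wells, and averaged over triplicate plates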
Reading the numbers: mean z-score and z-score: higher = stronger reporter signal, weaker E2 silencing
Active means: 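Mean z ≥ 2 together with z ≥ 2 in two or more of the three replicates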

gene symbol | reagent no. | mean z-score | z-score, replicate A | z-score, replicate B | z-score, replicate C | call
RXFP3 (relaxin family peptide receptor 3) | 1 | -0.5 | -0.46 | -0.9 | -0.14 | inactive
LOC400992 (retired record) | 1 | -0.11 | -0.44 | 0 | 0.12 | inactive
WDR75 (WD repeat domain 75) | 1 | -0.09 | 0.09 | -0.19 | -0.18 | inactive
TBC1D8 (TBC1 domain family member 8) | 1 | 1.53 | 1.3 | 1.57 | 1.72 | inactive
DDX19A (DEAD-box helicase 19A) | 1 | -0.28 | -0.23 | -0.09 | -0.51 | inactive
HSPB7 (heat shock protein family B (small) member 7) | 1 | -0.56 | -0.03 | -0.81 | -0.84 | inactive
RTP1 (receptor transporter protein 1) | 1 | -0.89 | -0.69 | -1.17 | -0.8 | inactive
RBCK1 (RANBP2-type and C3HC4-type zinc finger containing 1) | 1 | -0.2 | -0.09 | -0.29 | -0.22 | inactive
LRRC42 (leucine rich repeat containing 42) | 1 | 0.82 | 0.79 | 0.7 | 0.99 | inactive
C22orf39 (chromosome 22 open reading frame 39) | 1 | 0.2 | 0.43 | 0.02 | 0.16 | inactive
HAND1 (heart and neural crest derivatives expressed 1) | 1 | -0.39 | -0.19 | -0.73 | -0.26 | inactive
FAM219B (family with sequence similarity 219 member B) | 1 | -0.67 | -0.58 | -0.85 | -0.59 | inactive
ART3 (ADP-ribosyltransferase 3 (inactive)) | 1 | -0.13 | 0.23 | -0.29 | -0.33 | inactive
P2RY12 (purinergic receptor P2Y12) | 1 | -0.92 | -0.91 | -0.8 | -1.06 | inactive
GPR155 (G protein-coupled receptor 155) | 1 | -0.85 | -0.65 | -0.91 | -1 | inactive
TMEM117 (transmembrane protein 117) | 1 | 1.05 | 0.94 | 1.09 | 1.13 | inactive
MYF6 (myogenic factor 6) | 1 | -0.87 | -0.85 | -0.79 | -0.96 | inactive
CPXCR1 (CPX chromosome region candidate 1) | 1 | 1.03 | 1.1 | 0.97 | 1.03 | inactive
KAZN (kazrin, periplakin interacting protein) | 1 | -0.99 | -1.05 | -1.09 | -0.84 | inactive
KAZN (kazrin, periplakin interacting protein) | 2 | 0.78 | 1.15 | 0.48 | 0.7 | inactive
SSX8P (SSX family member 8, pseudogene) | 1 | -0.61 | -0.35 | -0.53 | -0.95 | inactive
RNGTT (RNA guanylyltransferase and 5'-phosphatase) | 1 | 0.24 | 0.49 | -0.05 | 0.29 | inactive
BAGE4 (BAGE family member 4) | 1 | -0.48 | -0.8 | -0.34 | -0.31 | inactive
CELF6 (CUGBP Elav-like family member 6) | 1 | 0.77 | 0.58 | 1.16 | 0.56 | inactive
DHX38 (DEAH-box helicase 38) | 1 | -0.3 | -0.4 | -0.13 | -0.36 | inactive
PALM2AKAP2 (PALM2 and AKAP2 fusion) | 1 | 0.64 | 0.39 | 1.08 | 0.45 | inactive
PALM2AKAP2 (PALM2 and AKAP2 fusion) | 2 | 1.28 | 0.8 | 1.61 | 1.43 | inactive
CPS1 (carbamoyl-phosphate synthase 1) | 1 | 0.22 | 0.31 | 0.06 | 0.28 | inactive
PRCC (proline rich mitotic checkpoint control factor) | 1 | 0.67 | 0.67 | 0.85 | 0.49 | inactive
MSL3B (MSL complex subunit 3B) | 1 | -0.3 | -0.14 | -0.41 | -0.34 | inactive
ETV3 (ETS variant transcription factor 3) | 1 | 1.26 | 1.42 | 1.19 | 1.18 | inactive
UBE2Q1 (ubiquitin conjugating enzyme E2 Q1) | 1 | -0.89 | -0.54 | -1.18 | -0.95 | inactive
CYP4F3 (cytochrome P450 family 4 subfamily F member 3) | 1 | 0.34 | 0.42 | 0.45 | 0.15 | inactive
CRB2 (crumbs cell polarity complex component 2) | 1 | -0.33 | -0.5 | -0.32 | -0.15 | inactive
SRSF1 (serine and arginine rich splicing factor 1) | 1 | -0.49 | -0.75 | -0.48 | -0.23 | inactive
LRFN5 | 1 | 1.64 | 0.8 | 1.48 | 2.63 | inactive
NT5C1A (5'-nucleotidase, cytosolic IA) | 1 | -0.06 | -0.3 | 0.12 | 0 | inactive
LOC389768 | 1 | -0.54 | -0.04 | -0.87 | -0.72 | inactive
LINC01142 (long independently transcribed non-coding RNA 1142) | 1 | -0.68 | -0.86 | -0.6 | -0.59 | inactive
LOC284901 (retired record) | 1 | -0.08 | 0.11 | -0.45 | 0.11 | inactive
TCEAL9 (transcription elongation factor A like 9) | 1 | -0.52 | -0.56 | -0.06 | -0.94 | inactive
HIF1A (hypoxia inducible factor 1 subunit alpha) | 1 | -0.47 | -0.46 | -0.61 | -0.35 | inactive
RAB36 (RAB36, member RAS oncogene family) | 1 | -1.17 | -1.23 | -1.26 | -1.03 | inactive
GON7 (GON7 subunit of KEOPS complex) | 1 | -1.04 | -0.88 | -1.14 | -1.09 | inactive
GAS2L2 (growth arrest specific 2 like 2) | 1 | 0.98 | 0.89 | 0.98 | 1.06 | inactive
HPD (4-hydroxyphenylpyruvate dioxygenase) | 1 | -0.91 | -0.89 | -1.05 | -0.79 | inactive
EPHB4 (EPH receptor B4) | 1 | 0.19 | 0.47 | 0.16 | -0.06 | inactive
GALNT7 (polypeptide N-acetylgalactosaminyltransferase 7) | 1 | 0.26 | 0.68 | 0.21 | -0.11 | inactive
SOX11 (SRY-box transcription factor 11) | 1 | 0.82 | 0.87 | 0.62 | 0.96 | inactive
CADM2 (cell adhesion molecule 2) | 1 | 0.4 | 0.29 | 0.61 | 0.31 | inactive
SMS (spermine synthase) | 1 | 0.27 | 0.09 | 0.05 | 0.65 | inactive
XCL1 (X-C motif chemokine ligand 1) | 1 | 1.54 | 1.28 | 1.79 | 1.56 | inactive
LOC389318 (retired record) | 1 | 1.05 | 0.87 | 1.1 | 1.17 | inactive
ENDOD1 (endonuclease domain containing 1) | 1 | 0.15 | 0.33 | -0.05 | 0.17 | inactive
AHSG (alpha 2-HS glycoprotein) | 1 | -0.05 | 0.38 | -0.09 | -0.44 | inactive
ANKRD17 (ankyrin repeat domain 17) | 1 | 1.25 | 1.22 | 1.48 | 1.04 | inactive
LRRC38 (leucine rich repeat containing 38) | 1 | -0.81 | -1.08 | -0.62 | -0.73 | inactive
